Patent publication US8741576B2, “Heteroclitic analogs and related methods” (Epimunne Inc., priority 1999, dated 2014)
Read-outs that look alike come from different tables or passages of the source.

Columns and labels:
HLA-A2.1 (A*0201) = HLA-A2.1 (A*0201) (Homo sapiens, UniProt P04439, D140Y/D185E/D98H/E176V/E277Q/G131W/G231S/I119V/I121R/I166T/I218V/L300P/L318F/N151K/N90K/P208A/P217A/Q86G/Q94H/R138H/R169H/T345S); assay: HLA-A2.1 peptide binding, competition with radiolabeled HBV Core.18 standard peptide; details: for IC50: read-out: A*0201 binding (IC50)
[1] = tested on: MAGE2.157-, HBV Pol.455- and HIV Pol.476-specific CTL lines; assay: IFNγ release (in situ capture ELISA) from murine CTL lines with peptide-pulsed .221A2.1 APC; assay type: cell-based, HLA-A2.1/K^bxs transgenic mice
HLA-A2.1 (human) = HLA-A2.1 (human) (UniProt P04439)

Row | Compound | HLA-A2.1 binding affinity compared to wildtype peptide (HLA-A2.1 (A*0201)) | heteroclitic activity in analog screening [1] | IC50 (HLA-A2.1 (A*0201); purified HLA-A2.1) [nM] | IC50 (HLA-A2.1 (A*0201)) [nM] | IC50 (HLA-A2.1 (human)) [nM]
1 | CC[C@H](C)[C@H](N)C(=O)N[C@@H](CCSC)C(=O)N[C@H](C(=O)NCC(=O)N[C@@H](Cc1c[nH]cn1)C(=O)N[C@@H](CC(C)C)C(=O)N[C@H](C(=O)NCC(=O)N[C@H](C(=O)O)C(C)C)C(C)C)[C@@H](C)CC [CEA.691 H5] | little or no change in HLA-A2.1 binding capacity | – | – | – | –
2 | CC[C@H](C)[C@H](N)C(=O)N[C@@H](CC(C)C)C(=O)N[C@@H](Cc1c[nH]cn1)C(=O)N[C@@H](CCC(=O)O)C(=O)N1CCC[C@H]1C(=O)N[C@H](C(=O)N[C@@H](Cc1c[nH]cn1)C(=O)NCC(=O)N[C@H](C(=O)O)C(C)C)C(C)C [HIV Pol.476 H3] | four-fold or higher affinity than wildtype peptide | heteroclitic activity | 78 | – | –
3 | CC[C@H](C)[C@H](NC(=O)CNC(=O)[C@H](Cc1ccccc1)NC(=O)[C@@H](NC(=O)[C@H](CC(C)C)NC(=O)[C@H](CCC(N)=O)NC(=O)[C@H](CC(C)C)NC(=O)[C@@H](N)Cc1ccc(O)cc1)[C@@H](C)CC)C(=O)N[C@@H](CCC(=O)O)C(=O)N[C@H](C(=O)O)C(C)C [MAGE2.157 I5] | lower affinity | – | 476 | – | –
4 | CC[C@H](C)[C@H](NC(=O)CNC(=O)[C@H](Cc1ccccc1)NC(=O)[C@H](Cc1ccccc1)NC(=O)[C@H](CC(C)C)NC(=O)[C@H](CCC(N)=O)NC(=O)[C@H](CC(C)C)NC(=O)[C@@H](N)Cc1ccc(O)cc1)C(=O)N[C@@H](CCC(=O)O)C(=O)N[C@H](C(=O)O)C(C)C [MAGE2.157 F5] | lower affinity | – | 212 | – | –
5 | CC[C@H](C)[C@H](N)C(=O)N[C@@H](CCSC)C(=O)N[C@@H](CCSC)C(=O)NCC(=O)N[C@H](C(=O)N[C@@H](CC(C)C)C(=O)N[C@H](C(=O)NCC(=O)N[C@H](C(=O)O)C(C)C)C(C)C)C(C)C [CEA.691 M3] | little or no change in HLA-A2.1 binding capacity | – | 27 | – | –
6 | CC[C@H](C)[C@H](N)C(=O)N[C@@H](CC(C)C)C(=O)N[C@@H](CC(C)C)C(=O)N[C@@H](CCC(=O)O)C(=O)N1CCC[C@H]1C(=O)N[C@H](C(=O)N[C@@H](Cc1c[nH]cn1)C(=O)NCC(=O)N[C@H](C(=O)O)C(C)C)C(C)C [HIV Pol.476 L3] | – | heteroclitic activity | – | – | –
7 | CC[C@H](C)[C@H](NC(=O)[C@H](CCC(=O)O)NC(=O)[C@H](C)NC(=O)[C@@H](NC(=O)[C@@H](N)CCCCN)C(C)C)C(=O)N[C@H](C(=O)N[C@@H](Cc1c[nH]cn1)C(=O)N[C@@H](Cc1ccccc1)C(=O)N[C@@H](CC(C)C)C(=O)O)C(C)C [MAGE3.112 I5] | little or no change in HLA-A2.1 binding capacity | – | 66 | – | –
8 | CC(C)C[C@H](NC(=O)[C@H](CCCNC(=N)N)NC(=O)[C@@H]1CCCN1C(=O)[C@@H](NC(=O)[C@H](Cc1ccc(O)cc1)NC(=O)[C@H](CCCNC(=N)N)NC(=O)[C@H](CO)NC(=O)[C@H](CC(C)C)NC(=O)CN)C(C)C)C(=O)O [HBV Pol.455 P7] | little or no change in HLA-A2.1 binding capacity | heteroclitic | – | 267 | –
9 | HIV Pol.476 L3 (peptide) | – | – | – | – | 63
